Measured values from several laboratories, pooled; numbers as filed in NIAID ChemDB.

Shared fields: whole-cell or culture tests; agent: Mycobacterium avium intracellulare; endpoint: MIC

Rows are shuffled and stem from different studies. Blank or dashed fields: not listed here.

SMILES	strain	result
CCCCSc1ncnc2ccccc12	D 38/92	32 µM
C/C=C/c1ccc(OC(=O)/C(C)=C/C)cc1	ATCC 19709	20 µg/mL
Clc1ccc2c(c1)nc1cc(Nc3ccccc3)c(=NC3CCCCC3)cc-1n2-c1ccccc1	TB60	1 µg/mL
NNC(=O)c1ccncc1	N-919 (HIV-)	8 µg/mL
COc1ccc(CNN(C(=O)c2ccncc2)C(=O)c2cnccn2)cc1	ATCC 13950	8 µg/mL
CN(C)C/C=C(/c1ccccc1)c1ccc(-c2ccc(Br)cc2)cc1	-	40 µg/mL
CC(C)Sc1ncnc2ccccc12	D 39/93	63 µM
O=C(c1ccncc1)N(NCc1cccc([N+](=O)[O-])c1)C(=O)c1cnccn1	ATCC 13950	8 µg/mL
CCCSc1ncnc2ccccc12	D 39/93	125 µM
CCCCCCCCCCCCCCN(C)C(=O)O[C@H]1C(O[C@@H]2[C@@H](C)[C@H](O[C@H]3C[C@@](C)(OC)[C@@H](OC(C)=O)[C@H](C)O3)[C@@H](C)C(=O)O[C@H](CC)[C@@](C)(O)[C@H](O)[C@@H](C)/C(=N/OCCCC3CCCCC3)[C@H](C)CC2(C)O)O[C@H](C)C[C@@H]1N(C)C	20075	0.2 µg/mL
CC(C)(C)OCOC(=O)c1cnccn1	ATCC 13950	100 µg/mL
CCn1c(S)c(N=NC(N)=O)c2ccccc21	CNCTC D38/92	250 µM
CCNNC(=O)O[C@H]1[C@H](O[C@@H]2[C@@H](C)[C@H](O[C@H]3C[C@@](C)(OC)[C@@H](OC(C)=O)[C@H](C)O3)[C@@H](C)C(=O)O[C@H](CC)[C@@](C)(O)[C@H](O)[C@@H](C)/C(=N/OCCCC3CCCCC3)[C@H](C)CC2(C)O)O[C@H](C)C[C@@H]1N(C)C	20066 (clarithromycin-susceptible)	0.78 µg/mL
CO[C@H]1/C=C/O[C@@]2(C)Oc3c(C)c(=O)c4c(O)c(c5oc6cc(N7CCCCC7)ccc6nc5c4c3C2=O)NC(=O)/C(C)=C\C=C\[C@H](C)[C@H](O)[C@@H](C)[C@@H](O)[C@@H](C)[C@H](OC(C)=O)[C@@H]1C	Shibazaki	0.63 µg/mL
C#CCNC(=O)O[C@H]1C(O[C@@H]2[C@@H](C)[C@H](O[C@H]3C[C@@](C)(OC)[C@@H](OC(C)=O)[C@H](C)O3)[C@@H](C)C(=O)O[C@H](CC)[C@@](C)(O)[C@H](O)[C@@H](C)/C(=N/OCCCC3CCCCC3)[C@H](C)CC2(C)O)O[C@H](C)C[C@@H]1N(C)C	20073	0.39 µg/mL
CCCCCN1C(=S)C(=O)c2ccccc21	CNCTC D38/92	32 µM
N[C@@H]1CN(c2c(F)cc3c(=O)c(C(=O)O)cn([C@@H]4C[C@@H]4F)c3c2Cl)CC12CC2	-	6.25 µg/mL
CN(C)CCCN1c2ccccc2Sc2ccc(Cl)cc21	V 915	25 µg/mL
NC[C@H]1O[C@H](O[C@H]2[C@H](O)[C@@H](O[C@H]3O[C@H](CO)[C@@H](O)[C@H](N)[C@H]3O)[C@H](N)C[C@@H]2N)[C@H](O)[C@@H](O)[C@@H]1O	CIPT 140310034	5 µg/mL
CC[C@H]1OC(=O)[C@H](C)[C@@H](O[C@H]2C[C@@](C)(OC)[C@@H](OC(C)=O)[C@H](C)O2)[C@H](C)[C@@H](O[C@@H]2O[C@H](C)C[C@H](N(C)C)[C@H]2O)C(C)(O)C[C@@H](C)/C(=N\OCCC2CCCCC2)[C@H](C)[C@@H](O)[C@]1(C)O	20066 (clarithromycin-susceptible)	3.13 µg/mL
CC(=O)NC[C@H]1CN(c2ccc(N3CCN(c4ccc([N+](=O)[O-])s4)CC3)c(F)c2)C(=O)O1	B-78/3	0.25 µg/mL
CO[C@H]1/C=C/O[C@@]2(C)Oc3c(C)c(=O)c4c(O)c(c5oc6cc(N(C)C)ccc6nc5c4c3C2=O)NC(=O)/C(C)=C\C=C\[C@H](C)[C@H](O)[C@@H](C)[C@@H](O)[C@@H](C)[C@H](OC(C)=O)[C@@H]1C	Shibazaki	1.25 µg/mL
COc1cc2ccnc3c2c(c1OC(=O)c1ccc(CCl)cc1)N(C)C=C3	-	10 µg/mL
CO[C@H]1/C=C/O[C@@]2(C)Oc3c(C)c(=O)c4c(O)c(c5oc6cc(N7CCCCCC7)ccc6nc5c4c3C2=O)NC(=O)/C(C)=C\C=C\[C@H](C)[C@H](O)[C@@H](C)[C@@H](O)[C@@H](C)[C@H](OC(C)=O)[C@@H]1C	Shibazaki	2.5 µg/mL
CCNC(=O)[C@@H](NC(=O)Cc1ccccc1)[C@@H]1N[C@@H](C(=O)NCCNC(=O)[C@@H]2N[C@@H]([C@H](NC(=O)Cc3ccccc3)C(=O)NCC)SC2(C)C)C(C)(C)S1	CIPT 140310023	25 µg/mL
O=C(c1ccncc1)N(/N=C/c1ccco1)C(=O)c1cnccn1	ATCC 13950	>16 µg/mL
CC[C@H]1OC(=O)[C@H](C)[C@@H](O[C@H]2C[C@@](C)(OC)[C@@H](OC(C)=O)[C@H](C)O2)[C@H](C)[C@@H](OC2O[C@H](C)C[C@H](N(C)C)[C@H]2OC(=O)NC)C(C)(O)C[C@@H](C)/C(=N\OCCCC2CCCCC2)[C@H](C)[C@@H](O)[C@]1(C)O	20067	1.56 µg/mL
COc1cc(/C=N/N(C(=O)c2ccncc2)C(=O)c2cnccn2)ccc1O	ATCC 13950	>16 µg/mL
CCSc1ncnc2ccccc12	D 39/93	63 µM
CCCCCc1ccc(C(=O)Oc2c(OC)cc3ccnc4c3c2N(C)C=C4)cc1	-	2.5 µg/mL
CC[C@H]1OC(=O)[C@H](C)[C@@H](O[C@H]2C[C@@](C)(OC)[C@@H](OC(C)=O)[C@H](C)O2)[C@H](C)[C@@H](OC2O[C@H](C)C[C@H](N(C)C)[C@H]2OC(=O)NCCCCCCCCCCCCCCN(C)C)C(C)(O)C[C@@H](C)/C(=N\OCCCC2CCCCC2)[C@H](C)[C@@H](O)[C@]1(C)O	20066	0.2 µg/mL
CC1(C)S[C@@H]2[C@H](NC(=O)[C@H](C(=O)[O-])c3ccsc3)C(=O)N2[C@H]1C(=O)[O-].[Na+].[Na+]	CIPT 140310023	50 µg/mL
CCCO/N=C1\[C@H](C)CC(C)(O)[C@H](O[C@@H]2O[C@H](C)C[C@H](N(C)C)[C@H]2O)[C@@H](C)[C@H](O[C@H]2C[C@@](C)(OC)[C@@H](OC(C)=O)[C@H](C)O2)[C@@H](C)C(=O)O[C@H](CC)[C@@](C)(O)[C@H](O)[C@H]1C	20066 (clarithromycin-susceptible)	>50 µg/mL
CN(C)CC/C=C1/c2ccccc2Sc2ccc(Cl)cc21	E 48067	25 µg/mL
CC[C@H]1OC(=O)[C@H](C)[C@@H](O[C@H]2C[C@@](C)(OC)[C@@H](OC(C)=O)[C@H](C)O2)[C@H](C)[C@@H](OC2O[C@H](C)C[C@H](N(C)C)[C@H]2OC(=O)NCC(=O)NC)C(C)(O)C[C@@H](C)/C(=N\OCCCC2CCCCC2)[C@H](C)[C@@H](O)[C@]1(C)O	20067	1.56 µg/mL
CN(C)CC=C(c1ccccc1)c1ccc(-c2ccc(Br)cc2)cc1	-	40 µg/mL
CC[C@H]1OC(=O)[C@H](C)[C@@H](OC2C[C@@](C)(OC)[C@@H](O)[C@H](C)O2)[C@H](C)[C@@H](O[C@@H]2O[C@H](C)C[C@H](N(C)C)[C@H]2O)C(C)(O)C[C@@H](C)/C(=N\OCC2CCCCC2)[C@H](C)[C@@H](O)[C@]1(C)O	20066 (clarithromycin-susceptible)	6.25 µg/mL
CN(C)C/C=C(\c1ccc(O)cc1)c1ccc(-c2ccccc2)cc1	-	98 µg/mL
CO[C@H]1/C=C/O[C@@]2(C)Oc3c(C)c(O)c4c(O)c(c5c(c4c3C2=O)NC2(CCN(CC(C)C)CC2)N=5)=NC(=O)/C(C)=C\C=C\[C@H](C)[C@H](O)[C@@H](C)[C@@H](O)[C@@H](C)[C@H](OC(C)=O)[C@@H]1C	N-809 (HIV-)	0.25 µg/mL
CC[C@H]1OC(=O)[C@H](C)[C@@H](O[C@H]2C[C@@](C)(OC)[C@@H](OC(C)=O)[C@H](C)O2)[C@H](C)[C@@H](O[C@@H]2O[C@H](C)C[C@H](N(C)C)[C@H]2OC(=O)NNCc2ccccn2)C(C)(O)C[C@@H](C)/C(=N\OCCCC2CCCCC2)[C@H](C)[C@@H](O)[C@]1(C)O	20066 (clarithromycin-susceptible)	0.78 µg/mL
NC(=O)c1cnccn1	ATCC 13950	>200 µg/mL
CO[C@H]1/C=C/O[C@@]2(C)Oc3c(C)c(O)c4c(=O)c(c5oc6cc(N7CCN(CC(C)C)CC7)cc(=O)c6nc5c4c3=C2O)NC(=O)/C(C)=C\C=C\[C@H](C)[C@H](O)[C@@H](C)[C@@H](O)[C@@H](C)[C@H](OC(C)=O)[C@@H]1C	N-752 (HIV-)	0.016 µg/mL
O=C1C(=S)N(Cc2ccccc2)c2ccccc21	CNCTC D38/92	63 µM
COc1cc2ccnc3c2c(c1OC(=O)c1ccc(C(C)(C)C)cc1)N(C)C=C3	-	1.3 µg/mL
OCCN1CCN(CCC=C2c3ccccc3Sc3ccc(Cl)cc32)CC1	R 6550	12.5 µg/mL
CO[C@H]1/C=C/O[C@@]2(C)Oc3c(C)c(O)c4c(O)c(c(/C=N/N5CCN(C6CCCC6)CC5)c(O)c4c3C2=O)NC(=O)/C(C)=C\C=C\[C@H](C)[C@H](O)[C@@H](C)[C@@H](O)[C@@H](C)[C@H](OC(C)=O)[C@@H]1C	141	0.5 µg/mL
CN(C)C/C=C(/c1ccc(Br)cc1)c1ccc(-c2ccc(Br)cc2)cc1	-	68 µg/mL
CCOC(=O)C(=O)N=Nc1c(S)n(CC)c2ccccc12	CNCTC D38/92	>1000 µM
CC[C@H]1OC(=O)[C@H](C)[C@@H](OC(=O)CC2CCCCC2)[C@H](C)[C@@H](O[C@@H]2O[C@H](C)C[C@H](N(C)C)[C@H]2O)C(C)(O)C[C@@H](C)/C(=N\OCCCOc2ccccc2)[C@H](C)[C@@H](O)[C@]1(C)O	20066 (clarithromycin-susceptible)	3.13 µg/mL
C=C(CCC=C(C)C)[C@@H]1CC[C@@]2(C)O[C@H]2C1	ATCC 19709	20 µg/mL
c1ccc(CCSc2ncnc3ccccc23)cc1	D 39/93	32 µM
COc1ccc2c(c1)N(C[C@H](C)CN(C)C)c1ccccc1S2	R 1631	50 µg/mL

Repeating the final 7 entries:

SMILES,strain,result
CO[C@H]1/C=C/O[C@@]2(C)Oc3c(C)c(O)c4c(O)c(c(/C=N/N5CCN(C6CCCC6)CC5)c(O)c4c3C2=O)NC(=O)/C(C)=C\C=C\[C@H](C)[C@H](O)[C@@H](C)[C@@H](O)[C@@H](C)[C@H](OC(C)=O)[C@@H]1C,141,0.5 µg/mL
CN(C)C/C=C(/c1ccc(Br)cc1)c1ccc(-c2ccc(Br)cc2)cc1,-,68 µg/mL
CCOC(=O)C(=O)N=Nc1c(S)n(CC)c2ccccc12,CNCTC D38/92,>1000 µM
CC[C@H]1OC(=O)[C@H](C)[C@@H](OC(=O)CC2CCCCC2)[C@H](C)[C@@H](O[C@@H]2O[C@H](C)C[C@H](N(C)C)[C@H]2O)C(C)(O)C[C@@H](C)/C(=N\OCCCOc2ccccc2)[C@H](C)[C@@H](O)[C@]1(C)O,20066 (clarithromycin-susceptible),3.13 µg/mL
C=C(CCC=C(C)C)[C@@H]1CC[C@@]2(C)O[C@H]2C1,ATCC 19709,20 µg/mL
c1ccc(CCSc2ncnc3ccccc23)cc1,D 39/93,32 µM
COc1ccc2c(c1)N(C[C@H](C)CN(C)C)c1ccccc1S2,R 1631,50 µg/mL